Measured values from several laboratories, pooled; numbers as filed in NIAID ChemDB.

Shared fields: growth or infection tests; species: Hepatitis B virus

ECn: concentration that inhibits the pathogen or its effect by n%.

| compound | cells | measure | method | value |
|---|---|---|---|---|
| Cc1cc(NC(=O)c2c(C(C)C)noc2C)ccc1F | HepG2.2.15 | EC50 | - | 0.15 µM |
| C[C@@H]1Cn2c(c(C(=O)NCc3ccccc3)n(-c3ccc(OC4CC4)cc3)c2=O)CN1C(=O)c1ccc(Br)c(Cl)c1 | HepG2.117 | EC50 | PCR | 0.5–5 µM |
| CCCCCCCCCCCCCCCC(=O)Nc1nc(N)nc2c1ncn2[C@H]1CO[C@@H](CO)O1 | HepAD38 | EC90 | PCR | >10 µM |
| Nc1ncc(Cl)c2c1ncn2[C@@H]1C[C@H](O)[C@@H](O)[C@H]1O | HepG2.2.15 | EC50 | - | >10 µM |
| CCCCOC(=O)C1=C(C)NC(c2ccccn2)=NC1c1ccccc1Cl | HepG2.2.15 | EC50 | - | >6 µM |
| C[C@@H](NC(=O)c1c2n(c(=O)n1-c1ccc(OCC(F)(F)F)cc1)CCN(C(=O)c1ccc(Br)c(Cl)c1)C2)c1ccc(OCC(N)=O)cc1-n1cccn1 | HepG2.117 | EC50 | PCR | >0.5 µM |
| C/C=C(/C)C(=O)Oc1c2c(cc3c1-c1c(cc(OC)c(OC)c1OC)C[C@](C)(O)[C@@H](C)C3)OCO2 | HepG2.2.15 | EC50 | PCR | 32 µg/mL |
| Cc1nc(-c2ccc(-n3c(=O)c4c(n5ncc(CC(C)C)c35)CN(C(=O)c3ccc(Cl)c(C(F)(F)F)c3)[C@@H](C)C4)cc2)n[nH]1 | HepG2.117 | EC50 | luminescence | 0.5–5 µM |
| O=C(NCc1ccccc1)c1c2n(c(=O)n1-c1ccc(-n3cncn3)cc1)CCN(C(=O)c1ccc(Br)c(Cl)c1)C2 | HepG2.117 | EC50 | PCR | 0.5–5 µM |
| CNc1ncnc2c1ncn2[C@H]1CC(F)[C@@H](COP(=O)(N[C@@H](C)C(=O)OC)Oc2ccccc2)O1 | HepG2 2.2.15 | EC50 | - | 0.5 µM |
| CC1=C(C(=O)OCCN(C)c2ccccc2)C(c2ccccc2Cl)N=C(c2ccccn2)N1 | HepG2.2.15 | EC50 | - | >25 µM |
| COc1ccc(-n2c(C(=O)N[C@H](C)C3CC3)c3n(c2=O)CCN(C(=O)c2ccc(Cl)c(Cl)c2)C3)cc1 | HepG2.117 | EC50 | PCR | >5 µM |
| C/C=C(/C)C(=O)Oc1c(OC)c(OC)cc2c1-c1c(cc(OC)c(OC)c1OC)C[C@H](C)[C@H](C)C2 | HepG2.2.15 | EC50 | PCR | 5.13 µg/mL |
| CC1=CC[C@]2(C)CC[C@]3(C)C(=O)C=C(C(C)C)[C@@H]3[C@H]2CC1 | - | EC50 | - | >100 µg/mL |
| Cc1cc(NC(=O)c2cc(-c3ccccc3)nc3ccccc23)ccc1F | HepG2.2.15 | EC50 | - | 0.6 µM |
| Cc1c(O)cc2c(c1O)C(=O)[C@H](Cc1ccc(O)cc1)CO2 | - | EC50 | ELISA / antigen | 2.58 µg/mL |
| CSc1ncc(C(=O)NCc2cccnc2)c(Nc2ccc3[nH]ncc3c2)n1 | HepG2.2.15 | EC50 | - | <0.1 µg/mL |
| Nc1ccn([C@@H]2CS[C@H](CO)O2)c(=O)n1 | HepG2.2.15 | EC50 | PCR | 1 µM |
| CCCCCCCCCCCC(=O)Nc1nc(N)nc2c1ncn2[C@H]1CO[C@@H](COP(=O)(N[C@@H](C)C(=O)OCC)Oc2ccccc2)O1 | HepAD38 | EC90 | PCR | ≥10 µM |
| COC(=O)C1=C(CN2CCNC(=O)C2)NC(c2ncc(F)cc2F)=N[C@H]1c1ccc(F)cc1Cl | HepG2.2.15 | EC50 | - | 0.04 µM |
| Nc1ncnc2c1ncn2[C@H]1CC(F)[C@@H](CO)O1 | HepG2 2.2.15 | EC50 | - | 140 µM |
| CCCCCCCC/C=C\CCCCCCCC(=O)Nc1nc(N)nc2c1ncn2[C@H]1CO[C@@H](CO)O1 | HepAD38 | EC90 | PCR | >10 µM |
| COC(=O)C1=C(CN2CCN(C(=O)OC)CC2)NC(c2ncc(F)cc2F)=NC1c1ccc(F)cc1Br | HepG2.2.15 | EC50 | - | 0.04 µM |
| CCOC(=O)[C@H](C)NP(=O)(OC[C@@H]1OC[C@H](n2cnc3c(NC(C)=O)nc(N)nc32)O1)Oc1ccccc1 | HepAD38 | EC50 | PCR | 9.3 µM |
| C[C@@]12C(=O)NC(=O)[C@]1(C)C1CCC2O1 | HepG2.2.15 | EC50 | PCR | 0.002 µM |
| O=C(N/C(C(=O)N1CCCCC1)=C(/Cl)c1ccccc1)c1ccccc1 | HepAD38 | EC50 | - | 1.9 µM |
| COC(=O)C1=C(C)NC(c2ncccc2Cl)=N[C@H]1c1ccc(F)cc1Cl | HepG2.2.15 | EC50 | - | 0.9 µM |
| CCCCCCCCCCCCCC(=O)Nc1nc(N)nc2c1ncn2[C@H]1CO[C@@H](COP(=O)(N[C@@H](C)C(=O)OCC)Oc2ccccc2)O1 | HepAD38 | EC50 | PCR | 0.39 µM |
| Nc1ncnc2c1ncn2[C@@H]1C[C@@H](F)[C@H](CO)O1 | HepG2 2.2.15 | EC50 | - | 186 µM |
| CSc1ncc(C(N)=O)c(Nc2ccc3[nH]ncc3c2)n1 | HepG2.2.15 | EC50 | - | ~0.1 µg/mL |
| C[C@@H]1Cc2c(n3ncc(CC4CCC4)c3n(-c3ccc(-c4nncn4C)cc3)c2=O)CN1C(=O)c1ccc(Br)c(Cl)c1 | HepG2.117 | EC50 | luminescence | ≤0.05 µM |
| COC(=O)C1=C(C)NC(c2ccccn2)=NC1c1ccsc1 | HepG2.2.15 | EC50 | - | 20 µM |
| Nc1nc(F)c2ncn(/C=C3\CC3(CO)CO)c2n1 | 2.2.15 | EC50 | hybridisation | >20 µM |
| CC(C)Cc1cnn2c3c(c(=O)n(-c4ccc(-c5nncn5C)cc4)c12)C[C@H](C)N(C(=O)c1ccc(Cl)c(C(F)(F)F)c1)C3 | HepG2.117 | EC50 | luminescence | 0.05–0.5 µM |
| Nc1nc(F)c2ncn(/C=C3/CC3(CO)CO)c2n1 | 2.2.15 | EC50 | hybridisation | >20 µM |
| CCOC(=O)[C@H](C)NP(=O)(OC[C@@H]1OC[C@H](n2cnc3c(N)nc(N)nc32)O1)Oc1ccccc1 | HepAD38 | EC90 | PCR | 2.8 µM |
| COC(=O)C1=C(C(F)(F)F)NC(c2ccccn2)=NC1c1ccccc1Cl | HepG2.2.15 | EC50 | - | >100 µM |
| CSc1ncc(C(=O)NCCN(C)C)c(Nc2ccc3cn[nH]c3c2)n1 | HepG2.2.15 | EC50 | - | <0.1 µg/mL |
| C[C@@H]1Cc2c(n3ncc(Cc4ccccc4)c3n(-c3ccc(-c4nn[nH]n4)cc3)c2=O)CN1C(=O)c1ccc(Br)c(C(F)(F)F)c1 | HepG2.117 | EC50 | luminescence | 0.5–5 µM |
| CC1O[C@H]2[C@@H]3C4=C(C(=O)OCC4=C[C@@]45C6=C(C(=O)OCC6)[C@@H](C[C@@H]34)OC5C)[C@H]3O[C@H](O)[C@@H]1C1=CCOC(=O)[C@@]132 | HepG2.2.15 | EC50 | PCR | 5.34 µM |
| CCCCCCCC(=O)Nc1nc(N)nc2c1ncn2[C@H]1CO[C@@H](COP(=O)(N[C@@H](C)C(=O)OCC)Oc2ccccc2)O1 | HepAD38 | EC90 | PCR | ≥10 µM |
| COC(=O)C1=C(C)NC(c2ncc(F)cc2F)=N[C@H]1c1ccc(F)cc1Cl | HepG2.2.15 | EC50 | - | 0.06 µM |
| Cc1cn([C@H]2OC(C)(CO)[C@H](O)[C@@H]2O)c(=O)[nH]c1=O | HepG2.2.15 | EC50 | - | >10 µM |
| CNc1n[nH]c2cc(-n3c(=O)c4c(n5ncc(CC(C)C)c35)CN(C(=O)c3ccc(Cl)c(C(F)(F)F)c3)[C@H](C)C4)ccc12 | HepG2.117 | EC50 | luminescence | ≤0.05 µM |
| O=C(NCc1c(F)cccc1Cl)c1c2n(c(=O)n1-c1ccc(OC3CC3)cc1)CCN(C(=O)c1ccc(Br)c(Cl)c1)C2 | HepG2.117 | EC50 | PCR | 0.1–0.5 µM |
| Cc1nc(-c2ccc(-n3c(=O)c4c(n5ncc(Cc6ccccc6)c35)CN(C(=O)c3ccc(Cl)c(C(F)(F)F)c3)[C@H](C)C4)cc2)n[nH]1 | HepG2.117 | EC50 | luminescence | ≤0.05 µM |
| CSc1ncc(C(=O)NN2CCOCC2)c(Nc2ccc3[nH]ncc3c2)n1 | HepG2.2.15 | EC50 | - | 0.1 µg/mL |
| Nc1ncnc2c1ccn2[C@@H]1C[C@@H](O)[C@H](CO)O1 | - | EC50 | - | 0.005–0.015 µM |
| COC(=O)C1=C(CN2CC3CC[C@H](C2)O3)NC(c2ncc(F)cc2F)=N[C@H]1c1ccc(F)cc1Cl | HepG2.2.15 | EC50 | - | 0.075 µM |
| CCCCCCCCCCCCCC(=O)Nc1nc(N)nc2c1ncn2[C@H]1CO[C@@H](CO)O1 | HepAD38 | EC90 | PCR | >10 µM |
| CC(C)Oc1ccc(-n2c(C(=O)NCc3ccc(C#N)cc3F)c3n(c2=O)CCN(C(=O)c2ccc(Br)c(Cl)c2)C3)cc1 | HepG2.117 | EC50 | PCR | 0.1–0.5 µM |
| Cc1n[nH]nc1-c1ccc(-n2c(=O)c3c(n4ncc(CC(C)C)c24)CN(C(=O)c2ccc(Cl)c(C(F)(F)F)c2)[C@@H](C)C3)cc1 | HepG2.117 | EC50 | luminescence | 0.5–5 µM |
| C[C@@H](NC(=O)c1c2n(c(=O)n1-c1ccc(OCC(F)(F)F)cc1)CCN(C(=O)c1ccc(Br)c(Cl)c1)C2)c1ccccc1F | HepG2.117 | EC50 | PCR | 0.1–0.5 µM |
| Nc1ncnc2c1ncn2[C@@H]1C=C[C@H](CO)O1 | 2.2.15 | EC50 | - | 0.2 µM |
| CC1=CC[C@]2(C)CC[C@@]3(C)[C@H](C(C(C)C)=C[C@@H]3O)[C@H]2CC1 | - | EC50 | - | 43 µg/mL |
| CSc1ncc(C(N)=O)c(Nc2ccc3cn[nH]c3c2)n1 | HepG2.2.15 | EC50 | - | <1 µg/mL |
| O=C(NCc1ccccc1)C1=C2CN(C(=O)c3ccc(Br)c(Cl)c3)CCN2C(=O)C1c1ccc(-c2ncc[nH]2)cc1 | HepG2.117 | EC50 | PCR | 0.5–5 µM |
| C[C@]1(CO)O[C@@H](n2cnc3c(=O)[nH]c(N)nc32)[C@H](O)[C@@H]1O | HepG2.2.15 | EC50 | - | >10 µM |
| C#CCc1cnn2c3c(c(=O)n(-c4ccc(C(=O)NC)cc4)c12)CCN(C(=O)c1ccc(Br)c(C(F)(F)F)c1)C3 | HepG2.117 | EC50 | luminescence | ≤0.05 µM |
| COC(=O)C1=C(CCC(=O)NC2CCCC2)NC(c2ccccn2)=NC1c1ccccc1Cl | HepG2.2.15 | EC50 | - | >100 µM |
| COC(=O)C1=C(CN2CCOC3CN(C(=O)OC(C)(C)C)CC32)NC(c2ncc(F)cc2F)=N[C@H]1c1ccc(F)cc1Cl | HepG2.2.15 | EC50 | - | 0.03 µM |
| O=C1OCc2c1cc1ccc3c(c1c2-c1ccc2c(c1)OCO2)OCO3 | HepG2.2.15 | EC50 | - | 1 µM |

The last 8 rows once more:

compound | cells | measure | method | value
CC1=CC[C@]2(C)CC[C@@]3(C)[C@H](C(C(C)C)=C[C@@H]3O)[C@H]2CC1 | - | EC50 | - | 43 µg/mL
CSc1ncc(C(N)=O)c(Nc2ccc3cn[nH]c3c2)n1 | HepG2.2.15 | EC50 | - | <1 µg/mL
O=C(NCc1ccccc1)C1=C2CN(C(=O)c3ccc(Br)c(Cl)c3)CCN2C(=O)C1c1ccc(-c2ncc[nH]2)cc1 | HepG2.117 | EC50 | PCR | 0.5–5 µM
C[C@]1(CO)O[C@@H](n2cnc3c(=O)[nH]c(N)nc32)[C@H](O)[C@@H]1O | HepG2.2.15 | EC50 | - | >10 µM
C#CCc1cnn2c3c(c(=O)n(-c4ccc(C(=O)NC)cc4)c12)CCN(C(=O)c1ccc(Br)c(C(F)(F)F)c1)C3 | HepG2.117 | EC50 | luminescence | ≤0.05 µM
COC(=O)C1=C(CCC(=O)NC2CCCC2)NC(c2ccccn2)=NC1c1ccccc1Cl | HepG2.2.15 | EC50 | - | >100 µM
COC(=O)C1=C(CN2CCOC3CN(C(=O)OC(C)(C)C)CC32)NC(c2ncc(F)cc2F)=N[C@H]1c1ccc(F)cc1Cl | HepG2.2.15 | EC50 | - | 0.03 µM
O=C1OCc2c1cc1ccc3c(c1c2-c1ccc2c(c1)OCO2)OCO3 | HepG2.2.15 | EC50 | - | 1 µM

Two numbers with a dash give a range or band. Blank or dashed fields: not listed here. Lines come from different laboratories, so protocols vary.